Results on two compounds are retold here after ChEMBL document CHEMBL3228013 (J Med Chem, 1979).

In data set [1] the test system is Mus musculus. Put plainly: Toxicity in ip dosed mouse allografted with mouse L1210 cells. The format is organism-based. The settings on record: in vivo. The essentials:
(§1)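 Female or male mice bearing L1210 lymphoid leukemia were tested under the NCI standard protocol. Dosing was ip, day 1 only, in aqueous Tween-80, at halved doses starting at 500 mg/kg and generally ending at 62.5 mg/kg. Mean survival time was assessed on day 30, and T/C ≥125% was taken as active.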

In data set [2] the test system is Mus musculus. Put plainly: Toxicity in mouse allografted with mouse L1210 cells at 500 mg/kg, ip. More on the design: dose 500 mg/kg, route intraperitoneal. The format is organism-based. The conditions noted are these: in vivo. The essentials: as §1

In the data set with Mus musculus [1], `NP(=O)(Oc1ccc([N+](=O)[O-])cc1)N(CCCl)CCCl` (configuration not stated) showed an MTD of 62.5 mg/kg.

With `Cc1ccc(NP(=O)(Cl)N(CCCl)CCCl)cc1` (configuration not stated), the Activity entry in the data set with Mus musculus [2] was “Non-toxic”.
